The source of these data is US20070249655A1, “4-Substituted-1,5-Dihydro-Pyrido[3,2-B]Indol-2-Ones” (priority 2004, published 2007).

The data set concerns HIV viruses. In words: Cross resistance study with more than 8000 viruses.

As to `Cn1c2ccccc2c2c1cc(C#N)c(=O)n2-c1ccc([N+](=O)[O-])cc1` [Compound 2, 5-methyl-1-(4-nitro-phenyl)-2-oxo-2,5-dihydro-1H-pyrido[3,2-b]indole-3-carbonitrile], the “calculated correlation coefficient with 3TC” value is “about 0.63”. The “correlation coefficient with known NNRTIs (capravirine, delavirdine, nevirapine, efavirenz)” value (all cases) is recorded as ≤ 0.13. Also, the “calculated correlation coefficient with known NRTIs (abacavir, AZT, D4T, DDC, DDI)” value (all cases except 3TC) is “lower than 0.28”.
